Measured values published in patent US20140017269A1 (CHILDREN S HOSPITAL MEDICAL CENTER, published 2014).

Target: the molecule itself
Experiment: gel filtration and EM; self-association

B1: GST-NoV P polypeptide fusion protein (GST-NoV P^-) (other)
chain: not shown
notes: Assembles with itself into linear complexes of varying size
binding result: binds
